Test results reported in US4436750A, “12'-Hydroxyverrucarin J and iso-satratoxin H” (dated 1984).

Tested on: P388 Lymphatic Leukemia
Assay: Antitumor activity against P388 Lymphatic Leukemia in Mice
Conditions: Q4D × 2, values ≥125 considered active

12'-hydroxyverrucarin J
T/C percent MST (test - 1, 1.25 mg/kg): 125%
T/C percent MST (test - 1, 2.50 mg/kg): 122%
T/C percent MST (test - 2, 0.31 mg/kg): 116%
T/C percent MST (test - 2, 0.63 mg/kg): 123%
T/C percent MST (test - 2, 1.25 mg/kg): 129%
T/C percent MST (test - 2, 2.50 mg/kg): 129%
